Measured values from several laboratories, pooled; numbers as filed in NIAID ChemDB.

Shared fields: cytotoxicity tests; cells: HFF; endpoint: CC50

CCn is the concentration with n% toxicity to the cells.

| SMILES | read by | value |
|---|---|---|
| O=C(O)P(=O)(O)O | - | >3000 µM |
| CCCCCCCCCCCCCCCCCOC[C@H](COP1(=O)CO[C@@H](Cn2ccc(N)nc2=O)CO1)OCc1ccccc1 | neutral red | 77 µM |
| Nc1ccn(C[C@@H](CO)OCP(=O)(O)O)c(=O)n1 | - | >10 µg/mL |
| CCCCCCCCCCCCCCCCCCOCCOP(=O)(O)CCCOCn1cnc2c(=O)[nH]c(N)nc21 | - | >100 µM |
| CCCCCCSc1nc(N)nc2c1ncn2/C=C1/C[C@@H]1CO | neutral red | >300 µM |
| CCCSc1nc(N)nc2c1ncn2/C=C1/C[C@@H]1CO | - | >343 µM |
| CNc1nc2c(Cl)c(Cl)ccc2n1COC(CO)CO | visual reading | >100 µM |
| O=Cc1cn([C@@H]2C[C@H](O)[C@@H](CO)O2)c(=O)[nH]c1=O | neutral red | >300 µM |
| CCCCCCCCCCCCOCCCOP1(=O)CO[C@@H](Cn2ccc(N)nc2=O)CO1 | neutral red | 63 µM |
| C=CCOc1nc(N)nc2c1ncn2/C=C1/C[C@@H]1CO | neutral red | >300 µM |
| [N-]=[N+]=NC(CI)c1cn([C@H]2C[C@H](O)[C@@H](CO)O2)c(=O)[nH]c1=O | - | >118 µM |
| CCCCCCCCCCCCCCCCCCOCCOP1(=O)CO[C@@H](Cn2ccc(N)nc2=O)CO1 | neutral red | 68 µM |
| COC(=O)[C@H](C)NP(=O)(OC[C@H]1C/C1=C/n1cnc2c(N)nc(N)nc21)Oc1ccccc1 | neutral red | 121 µM |
| CNc1cc2c(=O)c(C(=O)O)cn(C)c2cc1N1CCN(c2ccccn2)CC1 | MTT | >500 µM |
| CCCCCCCC/C=C\CCCCCCCCOCCOP(=O)(O)CCCOCn1cnc2c(=O)[nH]c(N)nc21 | - | >100 µM |
| OC[C@H]1O[C@@H](n2c(Cl)nc3cc(Cl)c(Cl)cc32)[C@H](O)[C@@H]1O | - | 238 µM |
| Nc1nc(OCC2CC2)c2ncn(/C=C3/C[C@@H]3CO)c2n1 | - | >348 µM |
| Nc1nc2c(ncn2COCCCP(=O)([O-])O)c(=O)[nH]1 | - | >100 µM |
| O=C(NCc1ccc(Cl)cc1)c1cn2c(CCO)cc3cc(CN4CCOCC4)cc(c1=O)c32 | neutral red | 15 µM |
| OCCOCn1c(Cl)nc2c(Cl)c(Cl)ccc21 | visual reading | >100 µM |
| COc1nc(N)nc2c1ncn2/C=C1/C[C@@H]1CO | - | >404 µM |
| OC[C@H]1O[C@@H](c2c(Cl)[nH]c3cc(Cl)c(Cl)cc23)[C@H](O)[C@@H]1O | - | >100 µM |
| O=C(NCc1ccc(Cl)cc1)c1c[nH]c2ccc(C#CCO)cc2c1=O | - | 41.7 µM |
| CN[C@H]1C[C@@H](n2cnc3c(N)ncnc32)[C@H](O)[C@@H]1O | - | >100 µg/mL |
| CN(C)c1nc2c(Cl)cc(Cl)cc2n1COCCO | visual reading | >100 µM |
| COC(C)c1cn([C@H]2C[C@H](O)[C@@H](CO)O2)c(=O)[nH]c1=O | - | 115 µM |
| COCCOCn1cc(C(N)=S)c2c(N)ncnc21 | - | ≥100 µM |
| CC(C)Nc1nc2cc(Cl)c(Cl)cc2n1[C@@H]1OC[C@@H](O)[C@H]1O | - | >100 µM |
| CCCCCCCCSc1nc(N)nc2c1ncn2/C=C1/C[C@@H]1CO | neutral red | 164 µM |
| COC(=O)C(Cc1c[nH]c2ccccc12)NP(=O)(O)OCC1C/C1=C/n1cnc2c(N)ncnc21 | - | 111 µM |
| CSc1nc2snc(C)c2[nH]1 | visual reading | 26 µM |
| CCCCCCCCCCCCCCO[C@H]1O[C@H](CO)[C@@H](O)[C@H](O)[C@H]1O | - | 264 µM |
| Nc1nc(NCC2CC2)c2ncn(/C=C3/C[C@@H]3CO)c2n1 | - | >349 µM |
| Cc1nsc2nc[nH]c12 | visual reading | 32 µM |
| CCCCCSc1nc(N)nc2c1ncn2/C=C1/C[C@@H]1CO | - | >313 µM |
| CCCCCCCCCCCCCCCCCCOCCCOP(=O)(O)CO[C@H](CO)Cn1ccc(N)nc1=O | neutral red | 44 µM |
| Cc1ccc(Cn2c(N)c(C#N)c3c(N)ncnc32)cc1 | - | 32 µM |
| Nc1ncnc2c1ncn2C=C1CC1CO | neutral red | >459 µM |
| Nc1nc(NCc2ccccc2)c2ncn(/C=C3/C[C@@H]3CO)c2n1 | - | >310 µM |
| Nc1n[nH]c(=O)c2c1ncn2[C@@H]1O[C@H](CO)[C@@H](O)[C@H]1O | - | 70 µM |
| CCCCCCOc1nc(N)nc2c1ncn2/C=C1/C[C@@H]1CO | neutral red | >300 µM |
| Cc1nsc2ncn([C@@H]3O[C@H](CO)[C@@H](O)[C@H]3O)c12 | visual reading | 32 µM |
| Nc1ncc2ncn(/C=C3/CC3(CO)CO)c2n1 | - | >300 µM |
| Nc1nc(NC2CC2)c2ncn(COCCCP(=O)(O)O)c2n1 | - | >300 µM |
| OC[C@H]1O[C@@H](c2c(SCc3ccccc3)[nH]c3cc(Cl)c(Cl)cc23)[C@H](O)[C@@H]1O | - | 32 µM |
| Nc1nc(NC2CC2)c2ncn(C=C3CC3CO)c2n1 | neutral red | 327 µM |
| COC(=O)C(C)NP(=O)(OC[C@@H]1C/C1=C/n1cc(C)c(=O)[nH]c1=O)Oc1ccccc1 | - | >300 µM |
| Nc1ncnc2ncn(/C=C3/C(F)C3(CO)CO)c12 | - | >100 µM |
| Nc1nc2cc(Cl)c(Cl)cc2n1COC(CO)CO | visual reading | >100 µM |
| Nc1cc2c(=O)c(C(=O)O)cn(C3CC3)c2cc1N1CCN(c2ccc3ccccc3n2)CC1 | MTT | <4 µM |
| Nc1nc(SC2CCCC2)c2ncn(/C=C3/C[C@@H]3CO)c2n1 | neutral red | >300 µM |
| O=C(NCc1ccc(Cl)cc1)c1c[nH]c2ccc(CCCO)cc2c1=O | - | 47.7 µM |
| c1ccc(CSc2nc3sncc3[nH]2)cc1 | visual reading | 14 µM |
| Nc1nc2c(ncn2/C=C2/CC2[C@@H](O)CO)c(=O)[nH]1 | neutral red | >300 µM |
| Nc1nc(NC2CC2)c2ncn(/C=C3/C[C@@H]3CO)c2n1 | - | >367 µM |
| CCc1cn([C@H]2C[C@H](O)[C@@H](CO)O2)c(=O)[nH]c1=O | - | >170 µM |
| COC(=O)C(C)NP(=O)(OC[C@@H]1C/C1=C\n1cc(N)c(=O)[nH]c1=O)Oc1ccccc1 | - | >100 µM |
| CCCCCCCC/C=C\CCCCCCCCO[C@H]1O[C@H](COP(=O)(O)C(=O)O)[C@@H](O)[C@H](O)[C@H]1O | - | 287 µM |
| COc1cccc(N2CCN(c3cc4c(cc3N)c(=O)c(C(=O)O)cn4C3CC3)CC2)c1 | MTT | 15.5 µM |
| OCCOCn1cnc2c(Cl)c(Cl)ccc21 | visual reading | >100 µM |
| CCCCCOc1nc(N)nc2c1ncn2/C=C1/C[C@@H]1CO | - | 178 µM |
| Cc1cn(COC(CO)CO)c2ncnc(N)c12 | - | >100 µM |
| Nc1nc2c(ncn2/C=C2/CC2(CO)CO)c(=O)[nH]1 | neutral red | >404 µM |
| Nc1nc2c(ncn2C=C2CC2CO)c(=O)[nH]1 | neutral red | >430 µM |
| CNc1nc2c(Cl)cc(Cl)cc2n1COCCO | visual reading | >100 µM |
| COC(=O)C(C)NP(=O)(OC[C@@H]1C/C1=C/n1cc(N)c(=O)[nH]c1=O)Oc1ccccc1 | - | >300 µM |
| Nc1ncnc2c1ncn2/C=C1/CC1(CO)CO | visual reading | 100–200 µM |
| O[C@@H]1[C@H](O)CO[C@H]1n1c(Cl)nc2cc(Cl)c(Cl)cc21 | - | 32 µM |
| Cc1nsc2nc(SCc3ccccc3)[nH]c12 | visual reading | 10 µM |
| O=C(O)c1cn(C2CC2)c2nc(N3CCN(c4ccccn4)CC3)ccc2c1=O | MTT | 151.8 µM |
| O=C(NCc1ccc(Cl)cc1)c1cn2c(CCN3CCOCC3)cc3cc(CN4CCOCC4)cc(c1=O)c32 | neutral red | 13 µM |
| OC[C@H]1O[C@@H](n2c(SCc3ccccc3)nc3sncc32)[C@@H](O)[C@@H]1O | visual reading | 2.1 µM |
| CCCCCCCC/C=C\CCCCCCCOCCCOP(=O)(O)CO[C@H](CO)Cn1ccc(N)nc1=O | neutral red | 87 µM |
| CCCCCCCC/C=C/CCCCCCCCO[C@H]1O[C@H](COP(=O)(O)C(=O)O)[C@@H](O)[C@H](O)[C@H]1O | - | 519 µM |
| Nc1nc(NCCO)c2ncn(/C=C3/C[C@@H]3CO)c2n1 | - | >362 µM |
| COC(=O)[C@H](C)NP(=O)(OC[C@H]1C/C1=C/n1cnc2c(=O)[nH]c(N)nc21)Oc1ccccc1 | neutral red | >205 µM |
| Nc1ncnc2c1ncn2C=C1CC1CO | neutral red | >460 µM |
| CC(=O)O[C@H]1[C@H](n2c(Cl)nc3cc(Cl)c(Cl)cc32)OC[C@H]1OC(C)=O | - | 41 µM |
| CC(C)(C)COc1nc(N)nc2c1ncn2/C=C1/C[C@@H]1CO | neutral red | >300 µM |
| C=CCO[C@]1(C)C[C@@H](C)CN[C@H](C)[C@@H](O)[C@](C)(O)[C@@H](CC)OC(=O)[C@H](C)[C@@H](O[C@H]2C[C@@](C)(OC)[C@@H](O)[C@H](C)O2)[C@H](C)[C@H]1O[C@@H]1O[C@H](C)C[C@H](N(C)C)[C@H]1O | MTS | 74 µM |
| Nc1nc2c(ncn2/C=C2/CC2[C@H](O)CO)c(=O)[nH]1 | neutral red | >300 µM |

For reference, 7 entries again:

{"SMILES": "CCCCCCCCCCCCCCCCCCOCCCOP(=O)(O)CO[C@H](CO)Cn1ccc(N)nc1=O", "read by": "neutral red", "value": "44 µM"}
{"SMILES": "O=C(O)P(=O)(O)O", "value": ">3000 µM"}
{"SMILES": "COC(=O)C(Cc1c[nH]c2ccccc12)NP(=O)(O)OCC1C/C1=C/n1cnc2c(N)ncnc21", "value": "111 µM"}
{"SMILES": "COc1nc(N)nc2c1ncn2/C=C1/C[C@@H]1CO", "value": ">404 µM"}
{"SMILES": "OC[C@H]1O[C@@H](c2c(Cl)[nH]c3cc(Cl)c(Cl)cc23)[C@H](O)[C@@H]1O", "value": ">100 µM"}
{"SMILES": "CCc1cn([C@H]2C[C@H](O)[C@@H](CO)O2)c(=O)[nH]c1=O", "value": ">170 µM"}
{"SMILES": "Nc1nc(NC2CC2)c2ncn(COCCCP(=O)(O)O)c2n1", "value": ">300 µM"}

Two numbers with a dash give a range or band. An empty or dashed field is not shown. Neighbouring rows are from separate reports.